Data: US9868772B2 (INDIANA UNIVERSITY RESEARCH AND TECHNOLOGY CORPORATION, priority 2012, dated 2018)

Assay: general procedure: Boc solid-phase peptide synthesis; MBHA resin, 100-180 mesh, 1% DVB, loading 0.7-1.0 mmol/g (Midwest Biotech); DEPBT/DIEA single couplings; DIC for acylation
Details: whole synthesis; for final HPLC purity: analytical HPLC, UV 214 or 220 nm, scale of the general procedure 0.2 mmole

Row | Substance | final HPLC purity | isolated mass (scale 0.2 mmole)
1 | HaibQGTFTSDYSKYLDERAAQDFVQWLLDGGPSSGAPPPSC-amide | 95% purity | 79 mg
2 | HaibQGTFTSDYSKYLDERAAQDFVQWLLDGGPSSGAPPPSK(Cys(SH) γE-C16)G-amide | HPLC purity of 90%+ | –
